Data reported in US20240295544A1 (priority 2020, published 2024).

Tested on: CMs
Type: cell-based
Details: CMs exposed to SARS-CoV-2

**Q.** How did the “incidence of myofibrillar disruption” value turn out when “IFN-β: Interferon β, Sigma Aldrich (IF014), 2500 U/mL” was run?
**A.** The value was “did not reduce the incidence of myofibrillar disruption”.
